US11034742B2, “Peptides with antibiotic potential against Mycobacterium tuberculosis” (LINNANE PHARMA AB, priority 2017, dated 2021)
“Also recorded” adds a separate entry of the source. Positions of bridges follow the written chain, without caps; N, C: chain ends. Residues, ends and D or L forms follow the SMILES beside them.

System: M. tuberculosis H37Rv
Assay: Murine TB model, TEM of lung sections with gold-labelled peptide
Type: in vivo, BALB/c mice
Settings: three days

CC[C@H](C)[C@@H]1NC(=O)[C@H](CO)NC(=O)[C@H](CCCCN)NC(=O)[C@@H]2CSSC[C@@H](C(=O)N[C@@H](Cc3ccc(O)cc3)C(=O)O)NC(=O)[C@H](CCCCN)NC(=O)[C@@H]3CSSC[C@H](NC(=O)[C@H](CCC(N)=O)NC(=O)[C@H]([C@@H](C)CC)NC(=O)[C@H](CC(=O)O)NC(=O)[C@H](CC(=O)O)NC(=O)[C@H](CCC(=O)O)NC(=O)[C@H](CO)NC(=O)[C@H](Cc4c[nH]c5ccccc45)NC(=O)[C@@H]4CCCN4C(=O)CNC(=O)[C@H](CC(N)=O)NC(=O)[C@@H](NC(=O)CNC(=O)[C@H](Cc4ccccc4)NC(=O)CN)CSSC[C@H](NC(=O)[C@H](Cc4ccc(O)cc4)NC(=O)CNC(=O)CNC(=O)[C@H](CCCCN)NC(=O)[C@H](Cc4ccc(O)cc4)NC(=O)CNC(=O)[C@H](CCCCN)NC1=O)C(=O)N[C@@H](C)C(=O)N[C@@H](CCCNC(=N)N)C(=O)NCC(=O)NCC(=O)N[C@@H](Cc1ccccc1)C(=O)N[C@@H](C(C)C)C(=O)N3)C(=O)N[C@@H](Cc1c[nH]cn1)C(=O)N[C@@H](CC(N)=O)C(=O)N[C@@H](Cc1c[nH]cn1)C(=O)N2 [SEQ ID NO: 3] (H-GFGCNGPWSEDDIQCHNHCKSIKGYKGGYCARGGFVCKCY-OH; disulfide 4-30, 15-37, 19-39 (inferred); N-terminus and C-terminus assumed)
localisation of gold-labelled peptide in lung sections (TEM): targets M. tuberculosis within macrophages in lung sections from infected mice; also recorded: peptide (arrows) around M. tuberculosis H37Rv (marked b) in lung macrophages
